PubChem BioAssay AID624099, ICCB-Longwood – 2012
Here is a random part of about 21,000 reagents. 497 of all reagents (2.4%) count as active. 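Higher z means weaker E2 silencing; only reporter increases were scored, and knock-downs that hurt cell survival may mask genuine repressor factors.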 Reagents against one gene are numbered here.

- Test: 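Human genes that papillomavirus E2 requires to repress the HPV18 LCR promoter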 (primary screen)
- Cell system: human C33A cervical carcinoma cells (HPV-negative) stably expressing BPV1 E2 and an HPV18 LCR luciferase reporter
- Reagent: siRNA pool against human genes, 40 nM
- Duration: 72 h
- Detection: 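HPV18 LCR reporter light per well, converted to plate-wise z-scores that exclude control wells, and averaged over triplicate plates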
- Reading the numbers: mean z-score and z-score: higher = stronger reporter signal, weaker E2 silencing
- Hit rule: 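Hit if mean z-score reaches 2 and two or more of three replicate z-scores also reach 2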

| gene | reagent no. | mean z-score | z-score, replicate A | z-score, replicate B | z-score, replicate C | Call |
| --- | --- | --- | --- | --- | --- | --- |
| DDX24 | 1 | -0.91 | -1.01 | -0.64 | -1.08 | inactive |
| SEC61A1 | 1 | 0.68 | 0.58 | 0.7 | 0.78 | inactive |
| ZRANB3 | 1 | 1.01 | 1.38 | 0.91 | 0.75 | inactive |
| FATE1 | 1 | -0.97 | -1.05 | -1.13 | -0.73 | inactive |
| TBCE | 1 | -0.81 | -0.19 | -1.04 | -1.2 | inactive |
| SCMH1 | 1 | -0.82 | -0.8 | -0.68 | -0.98 | inactive |
| JPT1 | 1 | 0.23 | -0.41 | 0.51 | 0.6 | inactive |
| DEXI | 1 | -0.58 | -0.6 | -0.41 | -0.73 | inactive |
| NEDD1 | 1 | -0.37 | -0.51 | -0.16 | -0.44 | inactive |
| ASIC1 | 1 | -0.01 | -0.25 | -0.29 | 0.52 | inactive |
| GRHPR | 1 | -0.82 | -1.25 | -0.55 | -0.66 | inactive |
| TTC5 | 1 | 1.12 | 1.1 | 1.19 | 1.08 | inactive |
| DNAJB9 | 1 | 0.76 | 0.9 | 0.76 | 0.63 | inactive |
| FBXL4 | 1 | 0.75 | 0.7 | 0.76 | 0.8 | inactive |
| FAT2 | 1 | 2.88 | 3.14 | 2.67 | 2.81 | active |
| NETO1 | 1 | -1.03 | -1.16 | -1.1 | -0.83 | inactive |
| MTBP | 1 | -0.55 | -0.45 | -0.57 | -0.63 | inactive |
| MYDGF | 1 | 0.77 | 0.57 | 0.22 | 1.51 | inactive |
| LOC389048 (retired record) | 1 | -1.19 | -0.9 | -1.37 | -1.31 | inactive |
| TMEM150B | 1 | -0.22 | 0.14 | -0.15 | -0.66 | inactive |
| DERA | 1 | 0.1 | 0.27 | 0.15 | -0.13 | inactive |
| ISL2 | 1 | -0.42 | -0.2 | -0.6 | -0.47 | inactive |
| SUCO | 1 | 0.01 | 0.39 | -0.48 | 0.11 | inactive |
| CHADL | 1 | 1.1 | 1.14 | 1.01 | 1.16 | inactive |
| ZNF503 | 1 | 0.79 | 0.74 | 0.68 | 0.95 | inactive |

10 entries from above in another layout:
GRHPR
- mean z-score: -0.82
- z-score, replicate A: -1.25
- z-score, replicate B: -0.55
- z-score, replicate C: -0.66
- Call: inactive

TTC5
- mean z-score: 1.12
- z-score, replicate A: 1.1
- z-score, replicate B: 1.19
- z-score, replicate C: 1.08
- Call: inactive

DNAJB9
- mean z-score: 0.76
- z-score, replicate A: 0.9
- z-score, replicate B: 0.76
- z-score, replicate C: 0.63
- Call: inactive

FBXL4
- mean z-score: 0.75
- z-score, replicate A: 0.7
- z-score, replicate B: 0.76
- z-score, replicate C: 0.8
- Call: inactive

FAT2
- mean z-score: 2.88
- z-score, replicate A: 3.14
- z-score, replicate B: 2.67
- z-score, replicate C: 2.81
- Call: active

NETO1
- mean z-score: -1.03
- z-score, replicate A: -1.16
- z-score, replicate B: -1.1
- z-score, replicate C: -0.83
- Call: inactive

MTBP
- mean z-score: -0.55
- z-score, replicate A: -0.45
- z-score, replicate B: -0.57
- z-score, replicate C: -0.63
- Call: inactive

MYDGF
- mean z-score: 0.77
- z-score, replicate A: 0.57
- z-score, replicate B: 0.22
- z-score, replicate C: 1.51
- Call: inactive

LOC389048 (retired record)
- mean z-score: -1.19
- z-score, replicate A: -0.9
- z-score, replicate B: -1.37
- z-score, replicate C: -1.31
- Call: inactive

TMEM150B
- mean z-score: -0.22
- z-score, replicate A: 0.14
- z-score, replicate B: -0.15
- z-score, replicate C: -0.66
- Call: inactive

Continued.
| gene | reagent no. | mean z-score | z-score, replicate A | z-score, replicate B | z-score, replicate C | Call |
| --- | --- | --- | --- | --- | --- | --- |
| SYNGR3 | 1 | 0.63 | 0.94 | 0.46 | 0.48 | inactive |
| CPEB4 | 1 | -0.16 | -0.35 | -0.05 | -0.08 | inactive |
| MYL1 | 1 | 0.23 | 0.21 | 0.32 | 0.17 | inactive |
| ZCWPW2 | 1 | 3.46 | 2.72 | 3.55 | 4.12 | active |
| TMEM181 | 1 | -1.15 | -0.82 | -1.23 | -1.4 | inactive |
| AKAP10 | 1 | 1.38 | 1.28 | 1.42 | 1.44 | inactive |
| VPS39 | 1 | 0.75 | 0.73 | 0.44 | 1.1 | inactive |
| RCC2 | 1 | -0.78 | -0.69 | -0.7 | -0.95 | inactive |
| ASPA | 1 | -0.51 | -0.52 | -0.7 | -0.29 | inactive |
| TRMT9B | 1 | -0.33 | -0.14 | -0.36 | -0.48 | inactive |
| TRMT9B | 2 | 0.37 | 0.3 | 0.05 | 0.77 | inactive |
| OPN1LW | 1 | 0.66 | 0.7 | 0.57 | 0.7 | inactive |
| MAP3K13 | 1 | 0.09 | 0.18 | 0.12 | -0.04 | inactive |
| MREG | 1 | -0.06 | -0.21 | -0.34 | 0.39 | inactive |
| CXCL16 | 1 | -0.16 | -0.13 | 0.06 | -0.41 | inactive |
| PPP1R14C | 1 | 0.01 | -0.11 | 0.36 | -0.22 | inactive |
| FAM13C | 1 | 1.04 | 1.31 | 1.01 | 0.8 | inactive |
| LOC388751 (retired record) | 1 | 1.1 | 1.46 | 0.89 | 0.95 | inactive |
| LOC388204 (retired record) | 1 | 0.57 | 0.43 | 0.29 | 0.98 | inactive |
| LOC389243 (retired record) | 1 | 1.07 | 1.54 | 0.65 | 1.02 | inactive |
| LOC401383 (retired record) | 1 | -1.12 | -1.31 | -0.93 | -1.12 | inactive |
| HK3 | 1 | 1.16 | 1.74 | 0.67 | 1.06 | inactive |
| LINC02243 | 1 | 2.38 | 2.55 | 2.7 | 1.89 | active |
| P2RX3 | 1 | 1.87 | 1.62 | 2.27 | 1.71 | inactive |
| SP140L | 1 | 0.36 | 0.14 | 0.45 | 0.49 | inactive |
| TWF1 | 1 | -0.08 | -0.19 | 0.43 | -0.48 | inactive |
| SAXO4 | 1 | -0.08 | 0.29 | 0.08 | -0.63 | inactive |
| ZNF567 | 1 | -0.68 | -0.53 | -0.92 | -0.59 | inactive |
| ABT1 | 1 | -0.42 | -0.42 | -0.61 | -0.23 | inactive |
| ABCC4 | 1 | 0.37 | 0.35 | 0.45 | 0.32 | inactive |
| CYTH3 | 1 | 0.99 | 1.05 | 1.09 | 0.83 | inactive |
| MIER1 | 1 | -0.53 | -0.33 | -0.61 | -0.66 | inactive |
| TAF11L4 | 1 | 0.28 | 0.45 | -0.14 | 0.54 | inactive |
| PLB1 | 1 | -1.81 | -1.55 | -2.22 | -1.66 | inactive |
| PLB1 | 2 | 0.1 | 0.08 | 0.08 | 0.14 | inactive |
| POLN | 1 | 0.59 | 0.69 | 0.68 | 0.4 | inactive |
| IL1R1 | 1 | 0.87 | 1.29 | 0.9 | 0.41 | inactive |
| SUPT7L | 1 | -0.16 | -0.26 | 0.09 | -0.31 | inactive |
| CBFB | 1 | 0.85 | 0.89 | 0.89 | 0.79 | inactive |
| IL2 | 1 | -0.04 | -0.15 | -0.01 | 0.04 | inactive |
| AQP7P4 | 1 | -0.64 | -0.57 | -0.54 | -0.81 | inactive |
| SERPINB9P1 | 1 | 1.08 | 1.09 | 1.12 | 1.03 | inactive |
| KHK | 1 | 2.65 | 2.83 | 2.55 | 2.57 | active |
| OTC | 1 | -0.78 | -0.69 | -0.74 | -0.91 | inactive |
| COL22A1 | 1 | -0.24 | 0.07 | -0.31 | -0.48 | inactive |
| SCAP | 1 | -0.37 | -0.48 | -0.25 | -0.38 | inactive |
| PGGHG | 1 | -0.94 | -0.84 | -1.07 | -0.92 | inactive |
| LINC02875 | 1 | -0.96 | -0.86 | -0.98 | -1.05 | inactive |
